Sequence variants of PSTVd loop 15 after infection

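A pool of all variants was put on leaves of three Nicotiana benthamiana plants. Progeny were sequenced from the inoculated region (day 5), the margin of the inoculated leaf (day 10) and systemic leaves (day 12).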

Region: loop 15 of PSTVd (intermediate strain), upper and lower strand joined, each 5' to 3', the first 7 letters being the upper strand, closing pairs included. Wild type: GGAAACCGCUACUAC. Varied positions (N): GGAAACCGNNNNNNC.

Values are reads per thousand in the sample; higher means more abundant, 0 means not found. Each site shows the three plants. "Pool" is the share in the plasmid pool used as inoculum, on the same scale. The inoculated region was read from the minus strand, the other sites from the plus strand. IR is the inoculated region, LM the leaf margin, Sys the systemic leaves. Samples held 43,870 to 66,106 reads, so the smallest values rest on one or two reads.

| sequence | pool | IR | LM | Sys |
|---|---|---|---|---|
| GGAAACCGCAGCGUC | 0.256 | 0.0491 / 0.112 / 0.114 | 0 / 0.0223 / 0.0200 | 0 / 0 / 0 |
| GGAAACCGCAGCUAC | 0.240 | 0.147 / 0.257 / 0.248 | 0.113 / 0.0445 / 0.160 | 0 / 0 / 0 |
| GGAAACCGCAGCUCC | 0.128 | 0.115 / 0.0643 / 0.0952 | 0 / 0 / 0.0801 | 0 / 0 / 0 |
| GGAAACCGCAGCUGC | 0.192 | 0.0983 / 0.0803 / 0.0762 | 0 / 0 / 0.0200 | 0 / 0 / 0 |
| GGAAACCGCAGCUUC | 0.176 | 0.115 / 0.129 / 0.0952 | 0.0162 / 0 / 0 | 0 / 0 / 0 |
| GGAAACCGCAGGAAC | 0.240 | 0.131 / 0.0803 / 0.209 | 0 / 0 / 0.0200 | 0.0161 / 0 / 0 |
| GGAAACCGCAGGACC | 0.240 | 0.0655 / 0.193 / 0.0762 | 0.0162 / 0.0223 / 0 | 0 / 0.0151 / 0 |
| GGAAACCGCAGGAGC | 0.240 | 0.197 / 0.225 / 0.152 | 0.0162 / 0.0223 / 0 | 0.0161 / 0 / 0 |
| GGAAACCGCAGGAUC | 0.224 | 0.0819 / 0.112 / 0.0952 | 0 / 0 / 0 | 0 / 0 / 0 |
| GGAAACCGCAGGCAC | 0.256 | 0.0819 / 0.0643 / 0.171 | 0.0162 / 0 / 0.0401 | 0.0161 / 0 / 0 |
| GGAAACCGCAGGCCC | 0.240 | 0.0983 / 0.177 / 0.0571 | 0 / 0 / 0 | 0 / 0 / 0 |
| GGAAACCGCAGGCGC | 0.304 | 0.0983 / 0.0803 / 0.133 | 0 / 0.0445 / 0 | 0 / 0 / 0 |
| GGAAACCGCAGGCUC | 0.336 | 0.0491 / 0.0964 / 0.114 | 0.0323 / 0 / 0.100 | 0 / 0 / 0 |
| GGAAACCGCAGGGAC | 0.320 | 0.0655 / 0.0482 / 0.0762 | 0 / 0 / 0.0401 | 0 / 0 / 0 |
| GGAAACCGCAGGGCC | 0.160 | 0.0983 / 0.0964 / 0.228 | 0 / 0 / 0.0200 | 0 / 0 / 0 |
| GGAAACCGCAGGGGC | 0.192 | 0.0491 / 0.0482 / 0 | 0.0162 / 0 / 0 | 0 / 0 / 0 |
| GGAAACCGCAGGGUC | 0.256 | 0.0655 / 0.0643 / 0.114 | 0.0162 / 0 / 0 | 0 / 0 / 0 |
| GGAAACCGCAGGUAC | 0.368 | 0.278 / 0.209 / 0.362 | 0.0970 / 0.178 / 0.0801 | 0.0644 / 0.0151 / 0.0456 |
| GGAAACCGCAGGUCC | 0.160 | 0.147 / 0.225 / 0.190 | 0 / 0 / 0 | 0.0161 / 0 / 0 |
| GGAAACCGCAGGUGC | 0.256 | 0.393 / 0.353 / 0.305 | 0.0323 / 0 / 0 | 0 / 0 / 0 |
| GGAAACCGCAGGUUC | 0.112 | 0.409 / 0.289 / 0.362 | 0.0647 / 0.134 / 0.0801 | 0.0644 / 0.0454 / 0.0684 |
| GGAAACCGCAGUAAC | 0.176 | 0.0983 / 0.0643 / 0.114 | 0 / 0 / 0.0601 | 0 / 0 / 0.0228 |
| GGAAACCGCAGUACC | 0.224 | 0.115 / 0.0803 / 0.0762 | 0 / 0 / 0 | 0 / 0 / 0 |
| GGAAACCGCAGUAGC | 0.224 | 0.115 / 0.0643 / 0.114 | 0 / 0.0223 / 0.0200 | 0 / 0 / 0 |
| GGAAACCGCAGUAUC | 0.208 | 0.229 / 0.193 / 0.286 | 0 / 0 / 0 | 0 / 0 / 0 |
| GGAAACCGCAGUCAC | 0.304 | 0.0491 / 0.0643 / 0.0571 | 0 / 0 / 0 | 0 / 0 / 0 |
| GGAAACCGCAGUCCC | 0.272 | 0.0655 / 0.0803 / 0.133 | 0 / 0 / 0.0200 | 0 / 0 / 0 |
| GGAAACCGCAGUCGC | 0.208 | 0.0328 / 0.161 / 0.0952 | 0 / 0.0223 / 0.0601 | 0 / 0 / 0 |
| GGAAACCGCAGUCUC | 0.192 | 0.0491 / 0.0964 / 0.0762 | 0.0162 / 0.0223 / 0 | 0.0161 / 0 / 0 |
| GGAAACCGCAGUGAC | 0.320 | 0.0655 / 0.0643 / 0.133 | 0 / 0 / 0.0200 | 0 / 0 / 0 |
| GGAAACCGCAGUGCC | 0.272 | 0.0819 / 0.0321 / 0 | 0.0162 / 0 / 0.0200 | 0 / 0 / 0 |
| GGAAACCGCAGUGGC | 0.352 | 0.0983 / 0.0321 / 0.190 | 0 / 0.0223 / 0.0401 | 0 / 0 / 0 |
| GGAAACCGCAGUGUC | 0.304 | 0.197 / 0.241 / 0.152 | 0.0162 / 0 / 0.0200 | 0.0161 / 0 / 0 |
| GGAAACCGCAGUUAC | 0.224 | 0.229 / 0.337 / 0.324 | 0.178 / 0.111 / 0.100 | 0.0483 / 0 / 0 |
| GGAAACCGCAGUUCC | 0.176 | 0.115 / 0.161 / 0.133 | 0.0162 / 0 / 0.0801 | 0 / 0 / 0 |
| GGAAACCGCAGUUGC | 0.112 | 0.0491 / 0.112 / 0.0571 | 0 / 0 / 0.0601 | 0.0161 / 0 / 0 |
| GGAAACCGCAGUUUC | 0.224 | 0.131 / 0.112 / 0.114 | 0.0323 / 0 / 0 | 0 / 0 / 0 |
| GGAAACCGCAUAAAC | 0.176 | 0.0819 / 0.0643 / 0.0762 | 0 / 0 / 0 | 0 / 0 / 0 |
| GGAAACCGCAUAACC | 0.160 | 0.197 / 0.145 / 0.248 | 0.0162 / 0 / 0.0200 | 0.0483 / 0 / 0 |
| GGAAACCGCAUAAGC | 0.192 | 0.0491 / 0.112 / 0.0762 | 0.0162 / 0 / 0 | 0 / 0 / 0 |
| GGAAACCGCAUAAUC | 0.240 | 0.246 / 0.129 / 0.171 | 0 / 0 / 0.0200 | 0 / 0 / 0 |
| GGAAACCGCAUACAC | 0.320 | 0.0983 / 0.0643 / 0.114 | 0 / 0 / 0.0200 | 0 / 0 / 0 |
| GGAAACCGCAUACCC | 0.240 | 0.0655 / 0.0482 / 0.0571 | 0.0162 / 0 / 0.0401 | 0 / 0 / 0 |
| GGAAACCGCAUACGC | 0.256 | 0.180 / 0.0964 / 0.190 | 0 / 0 / 0.0200 | 0 / 0 / 0 |
| GGAAACCGCAUACUC | 0.208 | 0.115 / 0.0482 / 0.0952 | 0.0162 / 0 / 0 | 0 / 0 / 0 |
| GGAAACCGCAUAGAC | 0.240 | 0.0655 / 0.145 / 0.0762 | 0 / 0 / 0.0401 | 0 / 0 / 0.0228 |
| GGAAACCGCAUAGCC | 0.256 | 0.0819 / 0.145 / 0.114 | 0 / 0 / 0.0401 | 0 / 0 / 0 |
| GGAAACCGCAUAGGC | 0.144 | 0.0491 / 0.0482 / 0.0762 | 0.0162 / 0.0223 / 0 | 0 / 0 / 0 |
| GGAAACCGCAUAGUC | 0.192 | 0.0655 / 0.129 / 0.0952 | 0 / 0.0223 / 0 | 0 / 0 / 0 |
| GGAAACCGCAUAUAC | 0.320 | 0.246 / 0.369 / 0.267 | 0.0647 / 0.0445 / 0.0601 | 0.0322 / 0 / 0 |
| GGAAACCGCAUAUCC | 0.336 | 0.180 / 0.112 / 0.190 | 0.0162 / 0 / 0 | 0 / 0 / 0 |
| GGAAACCGCAUAUGC | 0.304 | 0.164 / 0.145 / 0.0762 | 0.0162 / 0 / 0 | 0 / 0 / 0.0228 |
| GGAAACCGCAUAUUC | 0.144 | 0.164 / 0.129 / 0.152 | 0.0162 / 0.0223 / 0.0200 | 0.0322 / 0 / 0 |
| GGAAACCGCAUCAAC | 0.176 | 0.0983 / 0.0643 / 0.0571 | 0.0162 / 0 / 0 | 0 / 0 / 0 |
| GGAAACCGCAUCACC | 0.224 | 0.147 / 0.145 / 0.114 | 0 / 0.0223 / 0 | 0 / 0 / 0 |
| GGAAACCGCAUCAGC | 0.352 | 0.262 / 0.257 / 0.133 | 0.0323 / 0 / 0.0200 | 0.0322 / 0 / 0 |
| GGAAACCGCAUCAUC | 0.192 | 0.0328 / 0.0643 / 0.0381 | 0.0162 / 0 / 0.0401 | 0 / 0 / 0 |
| GGAAACCGCAUCCAC | 0.128 | 0.0983 / 0.0964 / 0.133 | 0 / 0 / 0 | 0.0161 / 0 / 0 |
| GGAAACCGCAUCCCC | 0.304 | 0.180 / 0.0321 / 0.0762 | 0 / 0 / 0.0401 | 0 / 0 / 0 |
| GGAAACCGCAUCCGC | 0.256 | 0.164 / 0.0964 / 0.114 | 0 / 0.0223 / 0 | 0 / 0 / 0 |
| GGAAACCGCAUCCUC | 0.240 | 0.213 / 0.305 / 0.114 | 0 / 0.0223 / 0.0200 | 0.0161 / 0 / 0 |
| GGAAACCGCAUCGAC | 0.192 | 0.0655 / 0.0482 / 0.114 | 0 / 0 / 0 | 0.0161 / 0 / 0 |
| GGAAACCGCAUCGCC | 0.320 | 0.147 / 0.0803 / 0.171 | 0 / 0 / 0.0401 | 0 / 0 / 0 |
| GGAAACCGCAUCGGC | 0.224 | 0.0983 / 0.0482 / 0.0762 | 0 / 0 / 0 | 0 / 0 / 0 |
| GGAAACCGCAUCGUC | 0.176 | 0.0328 / 0.112 / 0.0762 | 0 / 0 / 0.0200 | 0 / 0 / 0 |
| GGAAACCGCAUCUAC | 0.304 | 0.0328 / 0.0803 / 0.133 | 0 / 0.0223 / 0 | 0.0161 / 0 / 0 |
| GGAAACCGCAUCUCC | 0.224 | 0.0655 / 0.209 / 0.171 | 0.0162 / 0 / 0.0200 | 0 / 0 / 0 |
| GGAAACCGCAUCUGC | 0.128 | 0.278 / 0.145 / 0.0952 | 0 / 0.0223 / 0 | 0.0161 / 0 / 0 |
| GGAAACCGCAUCUUC | 0.208 | 0.0983 / 0.0643 / 0.0952 | 0 / 0 / 0.0401 | 0 / 0 / 0 |
| GGAAACCGCAUGAAC | 0.208 | 0.131 / 0.0964 / 0.0381 | 0.0162 / 0 / 0 | 0 / 0 / 0 |

The last 3 entries again:

sequence	pool	IR	LM	Sys
GGAAACCGCAUCUGC	0.128	0.278 / 0.145 / 0.0952	0 / 0.0223 / 0	0.0161 / 0 / 0
GGAAACCGCAUCUUC	0.208	0.0983 / 0.0643 / 0.0952	0 / 0 / 0.0401	0 / 0 / 0
GGAAACCGCAUGAAC	0.208	0.131 / 0.0964 / 0.0381	0.0162 / 0 / 0	0 / 0 / 0

For reference, wild type rose from 33.9 per thousand in the pool to 202, 200, 159 (inoculated region), 724, 746, 710 (leaf margin) and 856, 883, 880 (systemic leaves). Sequences that differ at fixed positions probably stem from PCR or sequencing errors, and defective variants can be carried along by functional ones.

The measurements come from Wu et al. 2024 (doi:10.1371/journal.ppat.1012142).